Results of unrelated studies side by side (data: NIAID ChemDB).

All rows: whole-cell or culture tests; organism: Poliovirus; measure: EC50

Two numbers with a dash give a range or band. Blank or dashed fields: not listed here. ECn is the concentration giving n% inhibition of infection, replication or growth. Conditions beyond the fields shown may differ between rows.

smiles,strain,cells,result
CN(C)c1cc(-c2ccc(O)cc2O)on1,SABIN (TYPE 1),VERO,110 µM
O=C1c2cc(Cl)ccc2OCC1Cc1ccc(Cl)cc1,TYPE 2,HeLa,18.56 µM
C1=C(c2ccccc2)COc2ccccc21,II (TYPE 2),HEP-2,<10 µM
CCn1c(-c2cccc(F)c2)c(C)c(=O)c2cc(C(C)C)ccc21,TYPE 1/SABIN,HeLa S3,0.73 µg/mL
CC(O)c1ccc2c(c1)S(=O)c1ccccc1O2,TYPE 3,BSC-1,>10 µg/mL
N#Cc1c(-c2ccccc2)s[nH]c1=S,Type 1/Brunhilde,HEP-2,0.25 µM
Cc1ccc(C(=O)CCCCCCOc2ccc(C3=NC(C)(C)CO3)cc2)s1,TYPE 1,VERO,>26.95 µM
CC=NC(=N)c1nc(-c2cccc(OC)c2)n(C/C=C/c2ccccc2)n1,TYPE 1,HeLa,>10 µg/mL
CSc1nsc(-c2ccc(OC(C)(C)C)cc2)c1C#N,TYPE 1,HEP-2,0.3 µM
CN=C(c1ccccc1)c1ccc2nc(N)n(S(=O)(=O)C(C)C)c2c1,Type 1/Mahoney,BSC-1,0.02 µg/mL
Cc1ccc(C(=O)CCCCCCOc2ccc(C3=N[C@@H](C)CO3)cc2)s1,TYPE 3,VERO,3.92 µM
CCCCOc1ccc(-c2snc(SC)c2C#N)cc1,Type 1/Brunhilde,HEP-2,0.3 µM
COc1cc(C(=O)Oc2c(-c3ccc(Cl)cc3)oc3ccccc3c2=O)ccc1OC(C)=O,TYPE 2,HeLa,>6.25 µM
Cc1nnc2nc3c(nn12)c1ccccc1n3C,TYPE 1,BSC-1,>60 µg/mL
CC(C)n1c(N)nc2ccc(/C(=N/O)c3ccccc3)cc21,Type 1/Mahoney,BSC-1,0.09 µg/mL
COc1ccc(CC2COc3cc(OC)cc(OC)c3C2=O)cc1,TYPE 2,HeLa,>6.25 µM
CCOC(=O)c1ccc(OCCC2CCN(c3ccc(C)nn3)CC2)cc1,TYPE 1,HEP-2/L-929/VERO,0.23 µM
CC=NC(=N)c1nc(-c2ccc(C)cc2)n(C/C=C/c2ccccc2)n1,TYPE 1,HeLa,>10 µg/mL
S=c1cc(-c2ccc(Cl)cc2)s[nH]1,Type 1/Brunhilde,HEP-2,1.34 µM
CCOc1ccc(-c2onc(N(CC)CC)c2Cc2c(N(CC)CC)noc2-c2ccc(O)cc2O)c(O)c1,SABIN (TYPE 1),VERO,>17 µM
CC(=O)c1ccc2c(c1)Cc1ccccc1O2,TYPE 3,BSC-1,0.4 µg/mL
Clc1ccc2c(c1)CC(c1ccccc1)CO2,SABIN (TYPE 2),HEP-2,>10 µM
Cc1cn([C@@H]2OCC(CO)=C2F)c(=O)[nH]c1=O,-,-,>100 µg/mL
CCOC(=O)c1ccc(OCCCCCc2cc(C)no2)cc1,TYPE 2,HELA-OHIO,0.8 µg/mL
COc1ccc(/C=C2\COc3ccccc3C2=O)cc1,TYPE 2,HeLa,>6.25 µM
Clc1ccc(-c2cc(SSc3cc(-c4ccc(Cl)cc4)sn3)ns2)cc1,Type 1/Brunhilde,HEP-2,1.1 µM
COc1ccc(/C=N/N=C(\N)NO)cc1.Cc1ccc(S(=O)(=O)O)cc1,Brunhilde (type 1),VERO,>50 µM
CCC1COC(c2ccc(OCCCCCCC(=O)c3ccc(C)s3)cc2)=N1,TYPE 3,VERO,13.8 µM
COc1cc(OC)c(OC)cc1/C=N/N=C(/N)NO.Cc1ccc(S(=O)(=O)O)cc1,Brunhilde (type 1),VERO,>50 µM
CC=NC(=N)c1nc(-c2ccccc2)n(COCCO)n1,TYPE 1,HeLa,>200 µg/mL
CSc1nsc(-c2ccc(OCCCCOc3ccccc3)cc2)c1C#N,TYPE 1,HEP-2/L-929/VERO,5 µM
COc1cc(/C=C/C(=O)Oc2c(-c3ccc(Cl)cc3)oc3ccccc3c2=O)ccc1OC(C)=O,TYPE 2,HeLa,>1.56 µM
Cc1ccc(C(=O)CCCCOc2ccc(C3=NCC(C)O3)cc2)s1,TYPE 2,VERO,1.73 µM
Brc1ccc(C2=Cc3ccccc3OC2)cc1,SABIN (TYPE 2),HEP-2,>10 µM
COc1cc(/C=C/C(=O)Oc2c(-c3ccc(Cl)cc3)oc3ccccc3c2=O)ccc1O,TYPE 2,HeLa,>6.25 µM
CC=NC(=N)c1nc(-c2cccc(OC)c2)n(Cc2ccccc2)n1,TYPE 1,HeLa,>10 µg/mL
Cc1c(-c2ccccc2)n(-c2ccc(F)cc2)c2ccc(C(C)C)cc2c1=O,TYPE 1/SABIN,HeLa S3,>2 µg/mL
Cc1ccc(S(=O)(=O)O)cc1.N/C(=N/N=C/c1ccc2c(c1)OCO2)NO,Brunhilde (type 1),VERO,>50 µM
Cc1ccc(C(=O)CCCCCCOc2ccc(C3=NCC(C)O3)cc2)s1,TYPE 1,VERO,>25.97 µM
CSc1nsc(-c2ccc(OCc3ccccc3)cc2)c1C#N,TYPE 1,HEP-2/L-929/VERO,>50 µM
CSc1nsc(-c2ccccn2)c1C#N,Type 1/Brunhilde,HEP-2,0.1 µM
CC(O)c1cccc(Cc2ccccc2)c1,TYPE 3,BSC-1,0.4–2 µg/mL
CSc1nsc(-c2ccc(O)cc2)c1C#N,TYPE 1,HEP-2,0.4 µM
N#Cc1c(Cl)nsc1Cl,Type 1/Brunhilde,HEP-2,>4 µM
Clc1ccc2c(c1)C=C(c1ccccc1)CO2,TYPE 2,HEP-2,<10 µM
COc1ccc(CC2COc3ccccc3C2=O)cc1,TYPE 2,HeLa,>6.25 µM
Clc1ccc(C2COc3ccccc3C2)cc1,TYPE 2,HEP-2,>10 µM
CCN(CC)c1cc(-c2ccc(OC)cc2O)on1,SABIN (TYPE 1),VERO,>381 µM
CC(O)c1ccc2c(c1)S(=O)(=O)c1ccccc1O2,TYPE 3,BSC-1,>10 µg/mL
OC[C@H]1O[C@@H](n2c(SCc3ccccn3)nc3cc(Cl)c(Cl)cc32)[C@H](O)[C@@H]1O,TYPE 1,HEL,>50 µg/mL
Clc1ccc2c(c1)C=C(c1ccc(Br)cc1)CO2,IA (TYPE 2),HEP-2,>10 µM
CSc1nsc(-c2ccncc2)c1C#N,Type 1/Brunhilde,HEP-2,>2.5 µM
COc1ccc(-c2cc(N3CCCC3)no2)c(O)c1,SABIN (TYPE 1),VERO,>384 µM
CC(=O)c1ccc(Oc2ccccc2)cc1,TYPE 3,BSC-1,0.4–2 µg/mL
OCCOCn1c(SCc2ccccn2)nc2ccccc21,TYPE 1,HEL,>100 µg/mL
CSc1nsc(-c2ccccc2)c1C#N,TYPE 1,HEP-2,0.045 µM
OC[C@H]1O[C@@H](n2c(CCc3ccccn3)nc3cc(Cl)c(Cl)cc32)[C@H](O)[C@@H]1O,TYPE 1,HEL,>100 µg/mL
COc1ccc(Cc2coc3cc(OC)cc(OC)c3c2=O)cc1,TYPE 2,HeLa,>6.25 µM
CSc1nsc(-c2ccc(OCCCCOc3ccc([N+](=O)[O-])cc3)cc2)c1C#N,TYPE 1,HEP-2/L-929/VERO,>0.5 µM
OCCOCn1c(CCc2ccccn2)nc2ccccc21,TYPE 1,HEL,>100 µg/mL
CC(=O)OC(C)c1ccc2c(c1)Sc1ccccc1O2,TYPE 3,BSC-1,0.4–2 µg/mL
CC=NC(=N)c1nc(-c2cccc(C)c2)n(COCCO)n1,TYPE 1,HeLa,>200 µg/mL

Repeating the final 6 entries:

smiles	strain	cells	result
OC[C@H]1O[C@@H](n2c(CCc3ccccn3)nc3cc(Cl)c(Cl)cc32)[C@H](O)[C@@H]1O	TYPE 1	HEL	>100 µg/mL
COc1ccc(Cc2coc3cc(OC)cc(OC)c3c2=O)cc1	TYPE 2	HeLa	>6.25 µM
CSc1nsc(-c2ccc(OCCCCOc3ccc([N+](=O)[O-])cc3)cc2)c1C#N	TYPE 1	HEP-2/L-929/VERO	>0.5 µM
OCCOCn1c(CCc2ccccn2)nc2ccccc21	TYPE 1	HEL	>100 µg/mL
CC(=O)OC(C)c1ccc2c(c1)Sc1ccccc1O2	TYPE 3	BSC-1	0.4–2 µg/mL
CC=NC(=N)c1nc(-c2cccc(C)c2)n(COCCO)n1	TYPE 1	HeLa	>200 µg/mL